# System: tobacco etch virus protease (TEV)
# Test: Dual-signal CLiPS, TEV cleavage of cell-surface displayed substrates
# Format: biochemical
# Conditions: SAPE labeling; for Fl after TEV: fluorescence after 1 hr with 10 units of TEV; for Fl: fluorescence of clonal population without TEV
# Method: Construction of a control plasmid (pBSGXP2) expressing a fusion of the streptavidin-binding peptide (WCHPMWEVMCLR) (SEQ ID NO:34) (Rice et. al. 2006) and a GGSGGS (SEQ ID NO:01) sequence flanked by flexible linkers on the amino terminus of circularly permuted outer membrane X (CPX) and a binding peptide of SLP-76 (P2) on the carboxy-terminus was performed using primers 1, 2, and 3 with primers 4 and 5. […] Products were digested with SfiI and ligated to similarly digested pBAD33. A substrate library (pBS5XP2) of the form X5, where X is any amino acid, was constructed using PCR with a synthetic oligonucleotide incorporating NNS codons (primer 9) along with primers 1 and 8 (Table 2). The product was digested with SfiI and ligated into a similarly digested pBAD33 plasmid. Transformation of the plasmid library into electrocompetent MC1061 yielded 6×10^7 colony forming units.
# A second substrate library (pBSToptP2) was created using primer 10 with primers 1 and 8. The product was digested with SfiI and ligated into a similarly digested pBAD33 plasmid. Transformation of the plasmid library into electrocompetent MC1061 yielded 5×10^7 colony forming units.
# Streptavidin conjugated phycoerythrin (SAPE) was used for labeling streptavidin binding affinity ligand on the N- and C-termini of CPX (FIG. 15). […] Of the three fluorescent proteins AlajGFP-Mona gave a higher fluorescence and was used for all labeling. The resulting CPX scaffold required a 3 hr induction time due to the additional peptide that was fused to the C-terminus. For optimum labeling of cells without protease reaction, the cells were incubated for 1 hr at 22° C. with SAPE (50 nM) and AlajGFPM (250 nM). […] For the described example below 1 hr incubation was used.
# For screening and clone analysis, overnight cultures were subcultured by dilution into fresh medium (1:50) and grown for 2 hrs at 37° C. The subculture was induced with 0.1% arabinose and incubated with shaking at room temperature for 3 hrs. Cell aliquots were washed with PBS (pH 8.0), and optical density at 600 nm (OD600) was measured to estimate cell concentration. Cells (10^8) were pelleted by centrifugation, the supernatant was removed, and the cells were resuspended in reaction buffer (10 μL). Following addition of the enzyme, the reaction mixture was incubated at room temperature on a rotary shaker. Cells were removed and diluted 100-fold in PBS to stop the reaction, pelleted by centrifugation, and resuspended in PBS containing SA-PE (50 nM) and AlajGFP-MONA. After incubation at room temperature (1 hr), cells were washed with PBS and analyzed or sorted using a FACSAria™ cell sorter (Becton, Dickinson and Company).
# Specifically, for each sample, conversion was determined by flow cytometry analyses using the relationship
# [formula] where (FL−) is the fluorescence after incubating without enzyme, (FL+) is fluorescence after incubation with enzyme, and (FL0) is fluorescence of unlabeled cells. For the recombinant FRET protein reactions, conversion was calculated by dividing the ratiometric FRET signal (yellow fluorescence/cyan fluorescence) by the FRET ratio that results from complete cleavage (Felber et al., Biotechniques 36:878-85 (2004)). For synthetic peptide reactions, conversion was calculated by dividing the fluorescence increase by the fluorescence change due to complete hydrolysis. The reported enteropeptidase KM for the physiological substrate tripsinogen is 17 μM (Light et al., J Biol Chem 259:13195-8 (1984)), but 600 μM for short DDDDK (SEQ ID NO:02) peptides (Lu et al., J Mol Biol 292:361-73 (1999)). Given KM for short peptides is much larger than the substrate concentrations that were used (<5 μM), the Michaelis-Menton model simplifies to
# The reaction buffer for TEV assays was 50 mM Tris-Cl pH 8.0 supplemented with 20. mM NaCl and 2 mM CaCl2. […]
Substance,Fl after TEV,Fl
DRELY [F04],1421,5906
EEAVL [H07],1043,2992
EEELY [B02],1081,3266
GEDLL [F09],1552,4809
LEQLI [B09],980,3254
PEVIY [C10],1381,6109
WEPLW [H08],1252,3971
WESLY [E11],1362,5049

# From patent US7666817B2, “Cellular libraries of peptide sequences (CLiPS) and methods of using the same” (The Regents of the University of California, priority 2005, dated 2010)
